Test system: sebum levels on the epidermis
Assay: Sebum level on the epidermis (sebum collected with glass cone and weighed)
Conditions: Rhino mice, day 15; Dysport 0.1, 0.3, 1 U/mouse single i.d. (groups 3-5); Adapalene gel 0.1% topical daily (group 2)

Compound: COc1ccc(-c2ccc3cc(C(=O)O)ccc3c2)cc1C12CC3CC(CC(C3)C1)C2 [Adapalene]
- Change in level of sebum on back skin versus vehicle: decrease

Source: patent US20240016718A1 (priority 2020, published 2024)
